Assay results as given in paper PMC9933715, “N-Phenylpyridine-3-Carboxamide and 6-Acetyl-1H-Indazole Inhibit the RNA Replication Step of the Dengue Virus Life Cycle” (Antimicrobial Agents and Chemotherapy, 2023).

Test system: sg-DENV-R2H
Experiment: Resistance selection with selectable subgenomic replicon sg-DENV-R2H in Huh7.5 cells
Format: cell-based, Dengue virus
Conditions: 100 µM, hygromycin 500 µg/mL, 31 days of dual selection

O=C(Nc1ccccc1)c1cccnc1 [NPP3C, N-phenylpyridine-3-carboxamide]
selection of resistant cells (genetic barrier to resistance): unable to select resistant cells
